Results of unrelated studies side by side (data: NIAID ChemDB).

Common to all: tests on isolated targets

An empty or dashed field is not shown. ICn: concentration for n% inhibition. a–b is a range or a potency band. Rows are shuffled and stem from different studies. Inhibition is in % at the dose shown (toxicity tests: loss of growth or viability).

smiles | changes | strain | tested at | target | endpoint | method | agent | result
CCc1cc(Nc2cc(=O)n(CC3CCN(C(=O)c4ccc(Cn5cc(Cl)cn5)o4)CC3)c(=O)[nH]2)ccc1C | - | - | - | DNA polymerase | IC50 | - | Staphylococcus aureus | 0.008 µM
C[C@@]1(O)[C@H](O)[C@@H](CO)O[C@H]1n1ccc(N)nc1=O | - | - | - | RNA polymerase | Ki | - | Bovine viral diarrhea virus | 0.16 µM
Nc1ccn([C@@H]2O[C@H](CO)[C@@H](O)[C@@H]2O)c(=O)n1 | - | KANNO (TK+) | - | Thymidylate synthetase | IC50 | - | Varicella zoster virus | 52 µM
O=c1c(-c2ccccc2C(F)(F)F)cn2ccn(Cc3cccc(Cl)c3)c(=O)c2c1O | - | - | - | Integrase | IC50 | ELISA | HIV-1 | <0.01 µM
N#Cc1ccc(-c2cncc(N3CCN(c4ccccn4)CC3)n2)cc1 | - | - | - | UL97 kinase | IC50 | - | Cytomegalovirus | <10 µM
Clc1cc(CN2CCCNCCNCCCNCC2)cc(Cl)n1 | CXCR4-H281A | - | - | CXCR4 | IC50 | - | - | 2.77 µM
Nc1ncnc2c1ncn2[C@H]1CC[C@@H](CO)O1 | - | Kanno-Kohmura (TK-) | - | Thymidylate synthetase | IC50 | - | Varicella zoster virus | >100 µM
O=C(c1ccno1)N1CCC(Cn2c(=O)cc(Nc3ccc4c(c3)CCC4)[nH]c2=O)CC1 | - | - | - | DNA polymerase | IC50 | - | Staphylococcus aureus | 0.07 µM
CCOC(=O)C[C@H](NC(=O)Nc1ccc(Cl)cc1)C1O[C@@H]2OC(C)(C)O[C@@H]2[C@H]1OC | - | - | 100 µM | Alpha-glucosidase | inhibition | - | Mycobacterium aurum | 47%
C[C@H](NC(=O)OCc1ccccc1)C(=O)Nc1csc2c(=O)oc([C@H](C)NC(=O)OCc3ccccc3)nc12 | - | - | - | CMV protease | IC50 | HPLC | Cytomegalovirus | >10 µM
CC(=O)c1ccc(N2CCN(c3cncc(-c4ccc(C)cc4)n3)CC2)cc1 | - | - | 1 µM | UL97 kinase | inhibition | - | Cytomegalovirus | <50%
O=C(Nc1nnc(NCc2cccc3ccccc23)s1)c1cc(F)cc(F)c1 | - | - | - | Polymerase | IC50 | - | Human cytomegalovirus | >25 µM
CCc1cc(Nc2cc(=O)n(CC3CCN(C(=O)c4ccc(C(F)(F)F)o4)CC3)c(=O)[nH]2)ccc1C | - | - | - | DNA polymerase | IC50 | - | Staphylococcus aureus | 0.03 µM
CC(C)Cn1c(Sc2ccc(C#N)c([N+](=O)[O-])c2)nnc1-c1ccccc1Cl | - | - | - | Thioredoxin reductase | IC50 | - | Plasmodium falciparum | 5.4 µM
C#C[C@H]1O[C@@H](n2cc(C)c(=O)[nH]c2=O)C[C@@H]1O | - | KOS | - | Thymidine kinase | Ki | - | Herpes simplex virus 1 | 0.09 µM
COc1cccc(/C(C)=C\c2coc3nc(N)nc(N)c23)c1 | - | - | - | Dihydrofolate reductase | IC50 | - | Toxoplasma gondii | 10 µM
COc1cccc(-c2cncc(N3CCN(c4ccccc4F)CC3)n2)c1 | - | - | 1 µM | UL97 kinase | inhibition | - | Cytomegalovirus | <50%
COC(=O)C(CCSC)NC(=O)C1(Cc2ccccc2C)CCN(C(=O)[C@@H](N)CS)CC1 | - | - | - | Geranylgeranyl-protein transferase I | IC50 | - | Candida albicans | 0.26 µM
C/C(=C/c1coc2nc(N)nc(N)c12)c1cccc2ccccc12 | - | - | - | Dihydrofolate reductase | IC50 | - | Toxoplasma gondii | 0.3 µM
Cc1[nH]nc2c1C(c1cc(C#N)cc(-c3ccc(C(=O)N(C)C)s3)c1)(C(C)C)C(C#N)=C(N)O2 | - | - | - | Serine hydroxymethyltransferase | IC50 | absorbance | Plasmodium falciparum | 0.27 µM
Cc1cccc(-c2cncc(N3CCN(c4cnccn4)CC3)n2)c1 | - | - | 1 µM | UL97 kinase | inhibition | - | Cytomegalovirus | <50%
CCOC(=O)CCCN1C(=O)c2ccccc2C(C(C)=O)C1=O | - | Serotype 2 | - | Protease | IC50 | - | Rhinovirus | >200 µM
O=C1O[C@H]2C(O)O[C@@H]3COC(=O)c4cc(O)c(O)c(O)c4-c4c(cc(c(O)c4O)Oc4c(cc(O)c(O)c4O)C(=O)O[C@@H]4[C@@H](OC(=O)c5cc(O)c(O)c(O)c5)[C@@H]5OC(=O)c6cc(O)c(O)c(O)c6-c6c(cc7c(c6O)OC6C(O7)C1=CC(=O)C6(O)O)C(=O)OC[C@H]5O[C@H]4O)C(=O)O[C@H]3[C@@H]2OC(=O)c1cc(O)c(O)c(O)c1 | - | - | 7.5 µg/mL | DNA polymerase | inhibition | - | Epstein-Barr virus | 54.3%
Cc1[nH]nc2c1C(c1cc(Cl)cc(C#N)c1)(C1CCC1)C(C#N)=C(N)O2 | - | - | - | Serine hydroxymethyltransferase | IC50 | absorbance | Plasmodium falciparum | 0.35 µM
CC(=O)N[C@@H]1[C@@H](N=C(N)N)C=C(C(=O)O)O[C@H]1C(=O)C(C)C | - | Victoria | - | Influenza virus sialidases | IC50 | fluorescence | Influenza B virus | 110 µM
Cc1[nH]nc2c1C(c1cc(Br)cc(C#N)c1)(C1CC=CC1)C(C#N)=C(N)O2 | - | - | - | Serine hydroxymethyltransferase | IC50 | absorbance | Plasmodium falciparum | 0.59 µM
Nc1nc2c(ncn2COC(CO)COP(=O)(O)OP(=O)(O)OP(=O)(O)O)c(=O)[nH]1 | - | - | - | DNA polymerase | Ki | - | Epstein-Barr virus | 0.08 µM
CCCCCCCCCCCCCCCCCC(=O)OC[C@@H](COP(=O)(O)OCCNCCO[C@@]1(C(=O)O)O[C@@H]([C@H](O)[C@H](O)CO)[C@H](NC(C)=O)[C@@H](O)[C@H]1F)OC(=O)CCCCCCCCCCCCCCCCC | - | H1N1 A/PR/8/34 | - | Sialidase | IC50 | - | Influenza A virus | 62.5 µM
O=C(/C=C/c1ccccc1Cl)Nc1nnc(NC2CC2)s1 | - | - | - | Polymerase | IC50 | - | Human cytomegalovirus | >25 µM
COc1ccc(/C(C)=C\c2coc3nc(N)nc(N)c23)cc1OC | - | - | - | Dihydrofolate reductase | IC50 | - | Toxoplasma gondii | 27 µM
CS(=O)(=O)CCCN1C(=O)c2ccccc2C(C(=O)c2ccccc2)C1=O | - | Serotype 14 | - | Protease | IC50 | - | Rhinovirus | 25 µM
O=C1c2ccccc2-[n+]2ccc3c([nH]c4ccccc43)c21 | - | - | - | p56lck tyrosine kinase | IC50 | ELISA | - | <700 µM
Cc1[nH]nc2c1C(C)(c1cc(Cl)cc(Cl)c1)C(C#N)=C(N)O2 | - | - | - | Serine hydroxymethyltransferase | IC50 | absorbance | Plasmodium falciparum | 3.57 µM
CC(Cc1coc2nc(N)nc(N)c12)c1ccc(S)c(Cl)c1Cl | - | - | - | Dihydrofolate reductase | IC50 | - | Toxoplasma gondii | 5 µM
CC1(C)Cn2ccc(=O)c(O)c2C(=O)N1Cc1ccc(Cl)c(Cl)c1 | - | - | - | Integrase | IC50 | ELISA | HIV-1 | 0.01–0.1 µM
COc1ccc(N2CCN(c3cncc(-c4csc5ccccc45)n3)CC2)cc1OC | - | - | - | UL97 kinase | IC50 | - | Cytomegalovirus | <10 µM
CCC(CC)O[C@@H]1C=C(C(=O)O)CC[C@H]1NC(C)=O | - | AICHI N2 | - | Influenza virus sialidases | IC50 | fluorescence | Influenza A virus | 0.07 µM
Nc1nc2c(ncn2CC[C@@H](O)COP(=O)(O)OP(=O)(O)OP(=O)(O)O)c(=O)[nH]1 | - | - | - | DNA polymerase | IC50 | - | Varicella zoster virus | 3.25 µM
CCCCCCCC/C=C\CCCCCCCCN1C(=O)N(c2ccccc2)C(=O)C[C@H]1C1OC2OC(C)(C)OC2[C@H]1OC | - | - | 100 µM | Alpha-glucosidase | inhibition | - | Mycobacterium aurum | 20.2%
CC(=O)Nc1ccc(C(=O)O)cc1 | - | RH | 10 µM | DHPS | inhibition | - | Toxoplasma gondii | 22.7%
CS(=O)(=O)CCCN1C(=O)c2ccccc2C(CC(=O)c2ccccc2)C1=O | - | Serotype 14 | - | Protease | IC50 | - | Rhinovirus | 44.6 µM
Nc1nc2c(ncn2COCCOP(=O)(O)OP(=O)(O)OP(=O)(O)O)c(=O)[nH]1 | - | - | - | DNA polymerase | Ki | - | Epstein-Barr virus | 0.007 µM
Nc1nc2c(ncn2[C@H]2CC[C@@H](COP(=O)(O)OP(=O)(O)OP(=O)(O)O)O2)c(=O)[nH]1 | RT-F61L | - | - | Reverse transcriptase | IC50 | nucleotide incorporation | HIV | 0.06 µM
NNC(=O)c1ccncc1 | - | H37Rv | - | Alpha-ketoglutarate dehydrogenase | IC50 | - | Mycobacterium tuberculosis | >1000 µM
CSCCCN1C(=O)Cc2ccccc2C1=O | - | Serotype 14 | - | Protease | IC50 | - | Rhinovirus | 98.3 µM
O=C([O-])c1c(F)c(F)cc(F)c1F | - | Can2 | - | Beta-carbonic anhydrase | Ki | - | Cryptococcus neoformans | 49.1 µM
CCC1(c2cc(Cl)cc(Cl)c2)C(C#N)=C(N)Oc2n[nH]c(C)c21 | - | - | - | Serine hydroxymethyltransferase | Ki | absorbance | Plasmodium falciparum | 0.281 µM
CCCCCCCC/C=C\CCCCCCCCN(C(=O)NCc1ccccc1)[C@@H](CC(=O)OCC)C1O[C@@H]2OC(C)(C)O[C@@H]2[C@H]1OC | - | - | 100 µM | Alpha-glucosidase | inhibition | - | Mycobacterium aurum | 1.4%
CN(C)c1ccc(-c2cncc(N3CCN(c4cccc(Cl)c4)CC3)n2)cc1 | - | - | 10 µM | UL97 kinase | inhibition | - | Cytomegalovirus | >15%
O=C(OC1OC2COC(=O)c3cc(Oc4c(C(=O)OC5C(O)OC6COC(=O)c7cc(O)c(O)c(O)c7-c7c(cc(O)c(O)c7O)C(=O)OC6C5OC(=O)c5cc(O)c(O)c(O)c5)cc(O)c(O)c4O)c(O)c(O)c3-c3c(cc(O)c(O)c3O)C(=O)OC2C(OC(=O)c2cc(O)c(O)c(O)c2)C1O)c1cc(O)c(O)c(O)c1 | - | - | 100 µg/mL | DNA polymerase | inhibition | - | Epstein-Barr virus | 70.8%
Cc1ccc(S(=O)(=O)N[C@@H](C)c2nc3ccsc3c(=O)o2)cc1 | - | - | - | CMV protease | IC50 | HPLC | Cytomegalovirus | >10 µM
Cc1ccc(C(=O)Nc2nnc(NCc3ccc4c(c3)OCO4)s2)cc1 | - | - | - | Polymerase | IC50 | - | Human cytomegalovirus | >25 µM
CC(Cc1coc2nc(N)nc(N)c12)C1c2ccccc2-c2ccccc21 | - | - | - | Dihydrofolate reductase | IC50 | - | Toxoplasma gondii | 10 µM
Cn1c(NC(=O)C2CCCCC2)nc2ccc(C(=O)NCCNCc3ccc4ccccc4c3)cc21 | - | - | - | N-myristoyltransferase | IC50 | - | Candida albicans | >10 µM
CC(C)C[C@H](NC(=O)[C@@H](O)[C@H](N)Cc1ccccc1)C(=O)O | - | - | - | PfM1AAP | Ki | fluorescence | Plasmodium falciparum | 1.6 µM
NC(=O)c1ccc(-c2cncc(N3CCN(c4ccccn4)CC3)n2)cc1 | - | - | - | UL97 kinase | IC50 | - | Cytomegalovirus | <1 µM
CCCCCCCCCCCCN(C(=O)Nc1ccc(Cl)cc1)[C@@H](CC(=O)OCC)C1O[C@@H]2OC(C)(C)O[C@@H]2[C@H]1Oc1ccccc1 | - | - | 100 µM | Alpha-glucosidase | inhibition | - | Mycobacterium aurum | 94.3%
O=C(c1ccccc1)c1cc(=O)c(O)c2n1CCN(Cc1ccc(Cl)c(Cl)c1)C2=O | - | - | - | Integrase | IC50 | ELISA | HIV-1 | <0.01 µM
O=C(CCCCCl)Nc1nnc(NCCc2c[nH]c3ccccc23)s1 | - | - | - | Polymerase | IC50 | - | Human cytomegalovirus | >25 µM
CC1(c2ccc(OCC#N)c(Cl)c2Cl)C(=O)c2ccccc2C1=O | - | - | - | Farnesyl-protein transferase | IC50 | - | Candida albicans | 124 µM
O=C(Nc1nnc(NCCCN2CCCC2=O)s1)c1ccc2c(c1)C(=O)OC2=O | - | - | - | Polymerase | IC50 | - | Human cytomegalovirus | >25 µM
CCOc1c(Cl)cc2nc(S(N)(=O)=O)sc2c1Cl | - | - | - | Farnesyl-protein transferase | IC50 | - | Candida albicans | >100 µM
C[C@H](Cn1cnc2c(N)ncnc21)OCP(=O)(O)O | - | Kanno-Kohmura (TK-) | - | Thymidylate synthetase | IC50 | - | Varicella zoster virus | >100 µM
Cc1[nH]nc2c1C(c1cc(C#N)cc(N3CCCC3=O)c1)(C1CCC1)C(C#N)=C(N)O2 | - | - | - | Serine hydroxymethyltransferase | Ki | absorbance | Plasmodium falciparum | 0.586 µM
O=C(Nc1nnc(NC2CC2)s1)c1cc2ccccc2s1 | - | - | - | Polymerase | IC50 | - | Human cytomegalovirus | >25 µM
COc1ccc2nc(NC(=O)C(=O)C(C(=O)c3ccc(-c4ccccc4)cc3)C3OC(=O)c4ccccc43)sc2c1 | - | - | - | Geranylgeranyl-protein transferase I | IC50 | - | Candida albicans | 0.06 µM
CC(C)CCn1c(Sc2ccc(C#N)c([N+](=O)[O-])c2)nnc1-c1ccc(Cl)cc1 | - | - | - | Thioredoxin reductase | IC50 | - | Plasmodium falciparum | 5.6 µM
CC(C)C(=O)N[C@H]1C([C@H](C)[C@@H](O)CO)OC(C(=O)O)=C[C@@H]1N=[N+]=[N-] | - | TYPE 3 | - | Neuraminidase | IC50 | - | Parainfluenza virus | 20 µM